Test [1] concerns the target human IgG (human). Nature of the test: BLI Octet, construct on Ni-NTA sensor, hIgG in solution. A general note: Biolayer interferometry detects binding as a change in optical thickness at a sensor tip.
Test [2] addresses human IgG (human). In words: BLI (Octet), gEgI on Ni-NTA sensor, hIgG in solution.
For test [3], the target named is human IgG (human). The test is described as above. The source holds these as a separate data set.

Where two headings read alike, the source gives them in different places.

A word on the kon: it is the second-order rate constant of association. A higher kon goes with fast association. “Non mutated HSV2 gEgI (HRV4) (from UniProt P89475 21-416; P06764 21-256) (receptor)” displayed a kon with human IgG (human) [1] of 16300 M⁻¹ s⁻¹.

What is called Kd is a measure of binding affinity in units of concentration. The term koff denotes the rate constant with which the complex falls apart. Low values mean a long-lived complex, high ones a short-lived complex. In the test with human IgG (human) [2], “Non mutated gEgI (HRV4) (from UniProt P89475 21-416; P06764 21-256) (receptor)” returned a Kd of 129 nM, a Response of 0.899 nm and a koff of 0.00206 s⁻¹. Besides, in the test with human IgG (human) [3], the dissociation constant (Kd) worked out at 262 nM and the Response turned out to be 0.732 nm.

The values above are taken from patent US20220273789A1.
